# HIV-1 5' UTR: effect of mutations on RNA dimer formation

Sequence of the HIV-1 NL4-3 5' RNA, positions 1 to 437, as numbered in the source:
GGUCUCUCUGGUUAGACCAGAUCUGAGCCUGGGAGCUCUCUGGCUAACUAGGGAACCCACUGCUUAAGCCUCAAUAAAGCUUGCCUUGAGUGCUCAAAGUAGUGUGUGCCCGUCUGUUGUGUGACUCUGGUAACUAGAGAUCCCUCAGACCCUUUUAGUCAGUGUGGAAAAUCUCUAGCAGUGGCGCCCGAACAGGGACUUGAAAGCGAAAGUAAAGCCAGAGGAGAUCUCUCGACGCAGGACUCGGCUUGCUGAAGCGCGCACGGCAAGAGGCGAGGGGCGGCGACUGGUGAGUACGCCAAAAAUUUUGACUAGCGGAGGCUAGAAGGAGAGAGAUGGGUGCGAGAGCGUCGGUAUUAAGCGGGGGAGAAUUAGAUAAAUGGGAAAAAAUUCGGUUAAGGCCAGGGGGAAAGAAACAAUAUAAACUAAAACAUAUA

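Mutant RNA libraries with 1G, 2G or 3G starts, with or without cap, were folded at 37 °C for 30 min. High salt was 300 mM KCl and 5 mM MgCl2, low salt 40 mM KCl and 0.1 mM MgCl2; monomer and dimer were parted on a native gel. Kdimer compares mutation frequencies in monomer and dimer, corrected for sequencing errors.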

Scale: median log2 Kdimer over the changes at a position; positive = changes inhibit dimerization, negative = changes enhance it.
One numbering serves 1G, 2G and 3G.
A position is written with its base.

| position | 1G capped high-salt | 1G capped low-salt | 1G uncapped high-salt | 1G uncapped low-salt |
|---|---|---|---|---|
| C185 | 0.04 | -0.28 | 0.16 | -0.26 |
| G186 | -0.35 | -0.42 | 0.02 | -0.20 |
| C187 | 0.10 | -0.19 | -0.10 | -0.19 |
| C188 | 0.28 | 0.30 | 0.06 | 0.22 |
| C189 | 0.10 | 0.14 | 0.14 | 0.25 |
| G190 | 0.28 | 0.16 | 0.12 | 0.24 |
| A191 | 0.14 | -0.13 | 0.02 | -0.05 |
| A192 | 0.07 | 0.39 | 0.10 | 0.04 |
| C193 | 0.08 | -0.54 | -0.02 | -0.16 |
| A194 | 0.13 | 0.38 | 0.13 | 0.34 |
| G195 | 0.31 | 0.38 | 0.31 | 0.43 |
| G196 | 0.32 | 0.34 | 0.39 | 0.53 |
| G197 | 0.11 | 0.32 | 0.29 | 0.39 |
| A198 | 0.18 | -0.11 | 0.22 | -0.22 |
| C199 | -0.16 | 0.00 | 0.06 | 0.02 |
| U200 | 0.19 | 0.05 | 0.18 | 0.04 |
| U201 | 0.15 | 0.03 | 0.06 | 0.00 |
| G202 | -0.13 | -0.20 | -0.18 | -0.10 |
| A203 | 0.50 | 0.67 | 0.45 | 0.50 |
| A204 | 0.21 | -0.06 | 0.17 | -0.11 |
| A205 | 0.17 | -0.03 | 0.08 | 0.05 |
| G206 | -0.81 | -0.65 | -0.39 | -0.48 |
| C207 | -0.53 | -0.39 | -0.17 | -0.35 |
| G208 | -0.09 | -0.33 | -0.04 | -0.27 |
| A209 | 0.99 | 0.76 | 0.84 | 0.68 |
| A210 | 0.04 | -0.04 | 0.19 | -0.13 |
| A211 | -0.24 | -0.31 | -0.18 | -0.30 |
| G212 | -0.78 | -0.57 | -0.49 | -0.61 |
| U213 | -0.11 | -0.61 | 0.39 | -0.47 |
| A214 | -0.04 | 0.02 | 0.03 | -0.10 |
| A215 | -0.27 | -0.13 | 0.02 | -0.23 |
| A216 | -0.27 | -0.43 | -0.08 | -0.49 |
| G217 | -1.02 | -1.06 | -0.54 | -1.08 |
| C218 | -0.66 | -0.95 | -0.35 | -0.86 |
| C219 | 0.22 | 0.46 | 0.60 | 0.45 |
| A220 | 0.08 | -0.05 | 0.21 | -0.07 |
| G221 | -0.29 | 0.26 | 0.05 | 0.49 |
| A222 | -0.13 | 0.45 | 0.12 | 0.56 |
| G223 | 0.02 | 0.46 | 0.13 | 0.49 |
| G224 | 0.14 | -0.18 | -0.02 | -0.25 |
| A225 | -0.16 | -0.39 | -0.04 | -0.19 |
| G226 | -0.64 | -0.57 | -0.29 | -0.67 |
| A227 | 1.14 | 1.10 | 0.75 | 1.14 |
| U228 | 0.06 | 0.17 | 0.23 | 0.12 |
| C229 | 0.36 | 0.24 | 0.33 | 0.24 |
| U230 | 0.45 | 0.62 | 0.42 | 0.64 |
| C231 | -0.19 | -0.05 | 0.30 | 0.05 |
| U232 | 0.18 | 0.71 | 0.30 | 0.86 |
| C233 | 0.78 | 0.82 | 0.78 | 0.78 |
| G234 | 0.95 | 0.05 | 0.44 | -0.16 |

3 of these entries, quoted again:

| position | 1G capped high-salt | 1G capped low-salt | 1G uncapped high-salt | 1G uncapped low-salt |
|---|---|---|---|---|
| G206 | -0.81 | -0.65 | -0.39 | -0.48 |
| C233 | 0.78 | 0.82 | 0.78 | 0.78 |
| C207 | -0.53 | -0.39 | -0.17 | -0.35 |

Reference: Ye et al. 2022, doi:10.1038/s41594-022-00746-2.